Test results from patent US20220000976A1 (priority 2018, published 2022).
Counter-ions that a name gives are not always drawn.

Test system: ROR-γt+ Treg cells
Settings: I3S 100 mg/kg in PBS intraperitoneally once weekly, OVA/SEB sensitization once weekly for 8 weeks

O=S(=O)(O)Oc1c[nH]c2ccccc12 [I3S, Indoxyl sulfate] was tested, and the “ROR-γt+ staining in CD4+Foxp3+ Treg cells vs sham treatment” value was “statistically significant increase”.
